Test system: Zymoseptoria tritici
Type: cell-based

Compound | RF in comparison with reference strain IPO323
Cn1cc(C(=O)Nc2ccc(F)cc2-c2ccc(Cl)c(Cl)c2)c(C(F)F)n1 [Bixafen, bixafen] | < 10
Cc1cc(OC(C)C)ccc1C(=O)C(C)(C)NC(=O)c1sccc1C [Isofetamid, N‐[1,1‐dimethyl‐2‐(4‐isopropoxy‐o‐tolyl)‐2‐oxoethyl]‐3‐methylthiophene‐2‐carboxamide] | > 174
